Anti-infective test results gathered from many reports (values: NIAID ChemDB through PubChem).

Shared fields: growth or infection tests; species: HIV-1

Rows are shuffled and stem from different studies.

compound,read by,read-out,cell line,strain,changes,value
Cc1cc(OCCCS(N)(=O)=O)ccc1NC(=O)COc1ccc(Cl)cc1C(=O)c1cc(F)cc(C(F)(F)F)c1,β-galactosidase,fold resistance,HeLa + HELA CD4+,HXB2 (RT-K103N Y181C) Recombinant,RT-K103N Y181C,~1
COc1ccnc2[nH]cc(C(=O)C(=O)N3C4CCCC3CN(C(=O)c3ccccc3)C4)c12,luciferase,EC90,TZM-bl,6535,,6.7 µM
CC(C)C1=C2[C@H]3CC[C@@H]4[C@@]5(C)CC[C@H](OC(=O)[C@H]6C[C@@H](C(=O)O)C6(C)C)C(C)(C)[C@@H]5CC[C@@]4(C)[C@]3(C)CC[C@@]2([C@@H](O)CNCC2CCNCC2)CC1=O,p24 / ELISA,EC50,MT-2,92HT599,,<1 µM
O=C1Nc2ccc(Cl)cc2[C@@](C#CC2CC2)(C(F)(F)F)N1,,EC90,,,RT-Y188L,~0.098 µM
CN1CCn2c(nc(C(=O)NCc3ccc(F)cc3S(C)(=O)=O)c(O)c2=O)C1(C)C,p24,EC95,MT-4,,,<1 µM
CC(C)C1=C2[C@H]3CC[C@@H]4[C@@]5(C)CC[C@H](OC(=O)[C@H]6C[C@@H](C(=O)O)C6(C)C)C(C)(C)[C@@H]5CC[C@@]4(C)[C@]3(C)CC[C@@]2(CCNCC(C)(C)NC(=O)c2nc3ccccc3[nH]2)CC1=O,p24 / ELISA,EC50,MT-2,92HT599,,<1 µM
O=C1Nc2ccc(F)c(F)c2[C@@](/C=C/C2CC2)(C(F)(F)F)N1,,fold resistance,,,RT-K103N,11.1
Cc1ccc(CNC(=O)c2nc3n(c(=O)c2O)CCNCC3N(C)C(=O)C(=O)N(C)C)cc1Cl,p24,EC95,MT-4,,,<1 µM
COc1ccc(S(=O)(=O)N(CC(C)C)C[C@@H](O)CCN(CC2CCCC2)S(=O)(=O)C2CCCCC2)cc1,p24,EC90,CEM,IIIB,,1 µM
CC(C)C1=C2[C@H]3CC[C@@H]4[C@@]5(C)CC[C@H](OC(=O)[C@H]6C[C@@H](C(=O)O)C6(C)C)C(C)(C)[C@@H]5CC[C@@]4(C)[C@]3(C)CC[C@@]2(CC(=O)NCC(C)(C)NC(=O)c2ccc(Cl)cc2OC2CCNCC2)CC1=O,p24 / ELISA,EC50,MT-2,92HT599,,<1 µM
CN(C)CC1NCCn2c1nc(C(=O)NCc1ccc(F)cc1)c(O)c2=O,p24,EC95,MT-4,,,<50 µM
Cc1cc(S(N)(=O)=O)ccc1NC(=O)COc1ccc(Cl)cc1C(=O)c1cc(Cl)cc(C#N)c1,β-galactosidase,fold resistance,HeLa + HELA CD4+,HXB2,RT-K103N V108I,~1
CC(C)C1=C2[C@H]3CC[C@@H]4[C@@]5(C)CC[C@H](OC(=O)[C@H]6C[C@@H](C(=O)O)C6(C)C)C(C)(C)[C@@H]5CC[C@@]4(C)[C@]3(C)CC[C@@]2(CC(=O)N[C@@H](CO)CNC(=O)c2ccc(Cl)cc2)CC1=O,p24 / ELISA,EC50,MT-2,92HT599,,<1 µM
CC(C)[C@H](NC(=O)OCc1ccccn1)C(=O)N[C@@H](Cc1ccccc1)[C@@H](O)C[C@H](Cc1ccccc1)NC(=O)OCc1cccnc1,p24,EC95,MT-4,NL4-3,PR-M46I V82T,1.5 µM
CCC(=O)c1ccc(F)c([C@@H]2C[C@@H]2NC(=O)Nc2ccc(C#N)cn2)c1O,β-galactosidase / luminescence,fold resistance,TZM-bl,LAI,NNRTI-resistant (RT K101E/K103N),56.3
Cc1cc(C#N)cc(C(=O)c2cc(Cl)ccc2OCC(=O)Nc2cnc(S(N)(=O)=O)cc2C)c1,β-galactosidase,fold resistance,HeLa + HELA CD4+,HXB2 (RT-K103N G190A) Recombinant,RT-K103N G190A,~1
Nc1nc(NC2CC2)c2ncn([C@H]3C=C[C@@H](CO)C3)c2n1,p24,EC90,MT-4,XM-AZT-resistant,RT-M41L D67N K70R T215Y K219Q,4.2 µM
CC(C)C1=C2[C@H]3CC[C@@H]4[C@@]5(C)CC[C@H](OC(=O)[C@H]6C[C@@H](C(=O)O)C6(C)C)C(C)(C)[C@@H]5CC[C@@]4(C)[C@]3(C)CC[C@@]2(CC(=O)NCC(C)(C)NC(=O)c2ccc(Cl)cc2O[C@@H]2CCOC2)CC1=O,p24 / ELISA,EC50,MT-2,92HT599,,<1 µM
CCc1cc(C#N)cc(C(=O)c2cc(Cl)ccc2OCC(=O)Nc2ccc(S(N)(=O)=O)cc2C)c1,β-galactosidase,fold resistance,HeLa + HELA CD4+,HXB2,RT-K103N,~1
COc1ccc(S(=O)(=O)N(CC2CCCC2)C[C@@H](O)CN(CC(C)C)C(=O)O[C@H]2CCOC2)cc1,p24,EC90,CEM,IIIB,,1 µM
CN(C)C(=O)C(=O)N(C)C1CN(CCc2ccccc2)CCn2c1nc(C(=O)NCc1ccc(F)cc1)c(O)c2=O,p24,EC95,MT-4,,,<1 µM
COc1ccnc2[nH]cc(C(=O)C(=O)N3C4CCC3CN(C(=O)c3ccccc3)C4)c12,luciferase,EC99,TZM-bl,AC10,,33 µM
COc1ccc(S(=O)(=O)N(CC(C)C)C[C@@H](O)CCN(CC(C)C)S(=O)(=O)N(C)C)cc1,p24,EC90,CEM,IIIB,,1 µM
Cc1ccc(C2CC2)c(-c2ccc3c(c2C)CCCO3)c1[C@H](OC(C)(C)C)C(=O)O,luminescence,fold resistance,MT-4,NL4-3,INSTI-resistant (IN-G140S Q148H),1
Cc1ccc(C)n1-c1ccc(C(=O)O)c(O)c1,luciferase / cell fusion,EC90,PBMC/5.25M7,92UG092 X4 CLADE A,,29.03 µM
CC(C)C1=C2[C@H]3CC[C@@H]4[C@@]5(C)CC[C@H](OC(=O)[C@H]6C[C@@H](C(=O)O)C6(C)C)C(C)(C)[C@@H]5CC[C@@]4(C)[C@]3(C)CC[C@@]2(CC(=O)NCc2ccc(Cl)cc2OC2CCNCC2)CC1=O,p24 / ELISA,EC50,MT-2,92HT599,,<1 µM
Cc1cc(S(N)(=O)=O)ccc1NC(=O)COc1ccc(Cl)cc1C(=O)c1cccc(C#N)c1,β-galactosidase,fold resistance,HeLa + HELA CD4+,HXB2,RT-V108I,~1
COc1ccc(S(=O)(=O)N(CC(C)C)C[C@@H](O)CCN(CC2CCCC2)S(=O)(=O)Cc2cncs2)cc1,p24,EC90,CEM,IIIB,,1 µM
CC(C)C1=C2[C@H]3CC[C@@H]4[C@@]5(C)CC[C@H](OC(=O)[C@H]6C[C@@H](C(=O)O)C6(C)C)C(C)(C)[C@@H]5CC[C@@]4(C)[C@]3(C)CC[C@@]2(CC(=O)NCc2ccc3c(c2)OCO3)CC1=O,p24 / ELISA,EC50,MT-2,92HT599,,<1 µM
Cc1cc(S(N)(=O)=O)ccc1NC(=O)COc1ccc(Cl)cc1C(=O)c1cc(F)cc(F)c1,β-galactosidase,fold resistance,HeLa + HELA CD4+,HXB2,RT-V108I,~1
CC(C)C1=C2[C@H]3CC[C@@H]4[C@@]5(C)CC[C@H](OC(=O)[C@H]6C[C@@H](C(=O)O)C6(C)C)C(C)(C)[C@@H]5CC[C@@]4(C)[C@]3(C)CC[C@@]2(CC(=O)NCC(C)(C)NC(=O)c2ccc(N3CCC(O)CC3)cn2)CC1=O,p24 / ELISA,EC50,MT-2,92HT599,,<1 µM
Cc1cc(C#N)cc(C(=O)c2cc(Cl)ccc2OCC(=O)Nc2ccc(OCCCN3CC=CC3)cc2C)c1,β-galactosidase,fold resistance,HeLa + HELA CD4+,HXB2,RT-V108I Y181C,~1
CC1(C)c2nc(C(=O)NCc3ccc(F)cc3)c(O)c(=O)n2CCN1Cc1cocn1,p24,EC95,MT-4,,,<1 µM
CC(C)=CCOc1cc(NC(=S)c2ccsc2C)ccc1Cl,p24,fold resistance,CEM + CEM-SS,NL4-3,RT-Y188C,1
C[C@@H]1CCO[C@H]2Cn3cc(C(=O)NCc4ccc(F)cc4F)c(=O)c(O)c3C(=O)N12,luminescence,fold resistance,MT-4,NL4-3,PI-resistant ARP-11807 (L33F/I47A/L63P/A71V/V82A),2
Nc1nc(=O)n([C@H]2C=C[C@@H](CO)O2)cc1F,p24,EC90,MT-4,XM-M184V,RT-M184V,2 µM
Cc1cc(S(N)(=O)=O)ccc1NC(=O)COc1ccc(Cl)cc1C(=O)c1cccc(C#N)n1,β-galactosidase,fold resistance,HeLa + HELA CD4+,HXB2,RT-K103N V108I,~1

Again, the opening 3 rows:

compound	read by	read-out	cell line	strain	changes	value
Cc1cc(OCCCS(N)(=O)=O)ccc1NC(=O)COc1ccc(Cl)cc1C(=O)c1cc(F)cc(C(F)(F)F)c1	β-galactosidase	fold resistance	HeLa + HELA CD4+	HXB2 (RT-K103N Y181C) Recombinant	RT-K103N Y181C	~1
COc1ccnc2[nH]cc(C(=O)C(=O)N3C4CCCC3CN(C(=O)c3ccccc3)C4)c12	luciferase	EC90	TZM-bl	6535		6.7 µM
CC(C)C1=C2[C@H]3CC[C@@H]4[C@@]5(C)CC[C@H](OC(=O)[C@H]6C[C@@H](C(=O)O)C6(C)C)C(C)(C)[C@@H]5CC[C@@]4(C)[C@]3(C)CC[C@@]2([C@@H](O)CNCC2CCNCC2)CC1=O	p24 / ELISA	EC50	MT-2	92HT599		<1 µM

Fold resistance: result on the changed form divided by that on wild type. An empty or dashed field is not shown. ECn is the concentration giving n% inhibition of infection, replication or growth.